System: carbapenem-resistant Gram-negative clinical isolates vs Caco-2 cells
Test: Lowest in vitro therapeutic index (lowest determined IC50/MIC)
Assay type: cell-based
Conditions: IC50 in Caco-2 cells/MIC
[1] = strain H P. aeruginosa CQ4924, + colistin 0.5 μg/mL

## CCCCCCCCCCCC[C@H]1O[C@H](C)C[C@H](O)[C@H]1O [Compound 5, 1-(4,6-dideoxy-α-D-xylo-hexopyranosyl)dodecane]
All test strains C-G, + colistin 0.25 μg/mL
  Lowest in vitro TI: approximately 6.3
[1]
  Lowest in vitro TI: ~6.2

## CCCCCCCCCCCCO[C@H]1C[C@H](O)[C@@H](O)[C@H](C)O1 [Compound 3, dodecyl 2,6-dideoxy-α-L-arabino-hexopyranoside]
Strain D E. cloacae CQ1941, + colistin 0.25 μg/mL
  Lowest in vitro TI: approximately 13.7
[1]
  Lowest in vitro TI: approximately 6.9
